# Share of PSTVd loop 15 variants by leaf site

Reference: Wu et al. 2024, doi:10.1371/journal.ppat.1012142.

PSTVd intermediate strain, loop 15: wild type GGAAACCGCUACUAC, pool pattern GGAAACCGNNNNNNC; upper and lower strand joined, each 5' to 3', the first 7 letters being the upper strand, closing pairs included.

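A pool of all variants was put on leaves of three Nicotiana benthamiana plants. Progeny were sequenced from the inoculated region (day 5), the margin of the inoculated leaf (day 10) and systemic leaves (day 12).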

Values are reads per thousand in the sample; higher means more abundant, 0 means not found.
Each site shows the three plants.
"Pool" is the share in the plasmid pool used as inoculum, on the same scale.
The inoculated region was read from the minus strand, the other sites from the plus strand.
With 43,870-66,106 reads a sample, very low values are single reads.
The authors trace changes outside the varied positions to PCR and sequencing errors or to mutation in the plant; presence does not show that a variant is infectious alone.
Wild type was 33.9 per thousand in the pool and the most common sequence in every sample (inoculated region 202, 200, 159; leaf margin 724, 746, 710; systemic leaves 856, 883, 880).

GGAAACCGAAAACGC (pool 0.256) gave inoculated region 0.164 / 0.0803 / 0.171; leaf margin 0.0323 / 0 / 0; systemic leaves 0 / 0 / 0.
GGAAACCGAACCAGC (pool 0.208) gave inoculated region 0.0655 / 0.112 / 0.114; leaf margin 0 / 0.0223 / 0; systemic leaves 0 / 0 / 0.
GGAAACCGAACGUGC (pool 0.240) gave inoculated region 0.475 / 0.353 / 0.419; leaf margin 0.0970 / 0.0891 / 0.140; systemic leaves 0.0161 / 0 / 0.
GGAAACCGACUCUAC (pool 0.192) gave inoculated region 0.0491 / 0.112 / 0.0762; leaf margin 0 / 0 / 0.0200; systemic leaves 0.0161 / 0 / 0.
GGAAACCGAGGUUGC (pool 0.240) gave inoculated region 0.0983 / 0.0643 / 0.0952; leaf margin 0 / 0.0223 / 0; systemic leaves 0 / 0 / 0.
GGAAACCGCAAAGUC (pool 0.224) gave inoculated region 0 / 0.0964 / 0.0952; leaf margin 0 / 0 / 0.0401; systemic leaves 0.0161 / 0 / 0.
GGAAACCGCAACGAC (pool 0.352) gave inoculated region 0.0819 / 0.112 / 0.133; leaf margin 0 / 0 / 0.0401; systemic leaves 0 / 0.0151 / 0.
GGAAACCGCAAUUAC (pool 0.272) gave inoculated region 0.213 / 0.386 / 0.324; leaf margin 0.178 / 0.111 / 0.100; systemic leaves 0.0161 / 0.0303 / 0.0228.
GGAAACCGCAUAGUC (pool 0.192) gave inoculated region 0.0655 / 0.129 / 0.0952; leaf margin 0 / 0.0223 / 0; systemic leaves 0 / 0 / 0.
GGAAACCGCAUGUGC (pool 0.272) gave inoculated region 0.164 / 0.112 / 0.0381; leaf margin 0.0162 / 0 / 0.0401; systemic leaves 0 / 0 / 0.
GGAAACCGCCAAGGC (pool 0.176) gave inoculated region 0.0819 / 0.0643 / 0.0190; leaf margin 0 / 0.0223 / 0; systemic leaves 0 / 0 / 0.
GGAAACCGCCGGUUC (pool 0.240) gave inoculated region 0.213 / 0.386 / 0.267; leaf margin 0.0485 / 0.0445 / 0.140; systemic leaves 0.0322 / 0.121 / 0.0912.
GGAAACCGCGCGAUC (pool 0.176) gave inoculated region 0.311 / 0.321 / 0.419; leaf margin 0.0970 / 0.0891 / 0.260; systemic leaves 0.0483 / 0 / 0.
GGAAACCGCGUUCAC (pool 0.272) gave inoculated region 0.197 / 0.129 / 0; leaf margin 0.0162 / 0.0223 / 0.0401; systemic leaves 0 / 0 / 0.
GGAAACCGCUAAUGC (pool 0.224) gave inoculated region 0.409 / 0.353 / 0.362; leaf margin 0.162 / 0.0668 / 0.0601; systemic leaves 0.0805 / 0.0303 / 0.0912.
GGAAACCGGAGCUCC (pool 0.304) gave inoculated region 0.0328 / 0.0964 / 0.0762; leaf margin 0 / 0 / 0; systemic leaves 0 / 0 / 0.
GGAAACCGGAUAGCC (pool 0.256) gave inoculated region 0.0983 / 0.161 / 0.133; leaf margin 0 / 0 / 0.0401; systemic leaves 0.0161 / 0 / 0.
GGAAACCGGAUCGCC (pool 0.128) gave inoculated region 0.0491 / 0.112 / 0.0571; leaf margin 0 / 0 / 0; systemic leaves 0 / 0 / 0.
GGAAACCGGCCCAAC (pool 0.256) gave inoculated region 0.0819 / 0.0964 / 0.0762; leaf margin 0.0323 / 0.0223 / 0.0200; systemic leaves 0 / 0 / 0.
GGAAACCGGCUCAAC (pool 0.160) gave inoculated region 0.0983 / 0.0803 / 0.114; leaf margin 0 / 0.0223 / 0; systemic leaves 0 / 0 / 0.
GGAAACCGGCUGACC (pool 0.192) gave inoculated region 0.0983 / 0.0964 / 0.0762; leaf margin 0 / 0 / 0.0200; systemic leaves 0 / 0 / 0.
GGAAACCGGGAGAUC (pool 0.176) gave inoculated region 0.180 / 0.0964 / 0.0762; leaf margin 0 / 0 / 0.0200; systemic leaves 0 / 0 / 0.
GGAAACCGGGAUCGC (pool 0.224) gave inoculated region 0.131 / 0.0643 / 0.0952; leaf margin 0 / 0 / 0.0200; systemic leaves 0 / 0 / 0.
GGAAACCGGGAUCUC (pool 0.192) gave inoculated region 0.0328 / 0.145 / 0.0381; leaf margin 0 / 0.0445 / 0; systemic leaves 0.0161 / 0 / 0.
GGAAACCGGGGUGAC (pool 0.224) gave inoculated region 0.147 / 0.0803 / 0.0952; leaf margin 0 / 0.0223 / 0; systemic leaves 0 / 0 / 0.
GGAAACCGUAGCCCC (pool 0.256) gave inoculated region 0.0491 / 0.0643 / 0.209; leaf margin 0 / 0.0223 / 0; systemic leaves 0 / 0 / 0.0228.
GGAAACCGUAUGCCC (pool 0.176) gave inoculated region 0.0819 / 0.0803 / 0.248; leaf margin 0 / 0 / 0; systemic leaves 0.0161 / 0 / 0.
GGAAACCGUCAAGGC (pool 0.224) gave inoculated region 0.131 / 0.177 / 0.248; leaf margin 0 / 0 / 0; systemic leaves 0.0161 / 0 / 0.
GGAAACCGUCACCGC (pool 0.272) gave inoculated region 0.0819 / 0.112 / 0.133; leaf margin 0 / 0 / 0.0200; systemic leaves 0 / 0 / 0.
GGAAACCGUCAUGUC (pool 0.256) gave inoculated region 0.0655 / 0.0803 / 0.0571; leaf margin 0.0162 / 0 / 0.0200; systemic leaves 0 / 0 / 0.
GGAAACCGUCGAUGC (pool 0.256) gave inoculated region 0.164 / 0.0803 / 0.209; leaf margin 0 / 0 / 0; systemic leaves 0 / 0 / 0.
GGAAACCGUGCGAGC (pool 0.272) gave inoculated region 0.0491 / 0.0803 / 0.0762; leaf margin 0.0162 / 0 / 0.0200; systemic leaves 0 / 0 / 0.
GGAAACCGUGGUAGC (pool 0.176) gave inoculated region 0.115 / 0.112 / 0.114; leaf margin 0 / 0.0445 / 0; systemic leaves 0 / 0 / 0.

Extract of 4 entries:

| sequence | pool | inoculated region | leaf margin | systemic leaves |
|---|---|---|---|---|
| GGAAACCGGGGUGAC | 0.224 | 0.147 / 0.0803 / 0.0952 | 0 / 0.0223 / 0 | 0 / 0 / 0 |
| GGAAACCGCGUUCAC | 0.272 | 0.197 / 0.129 / 0 | 0.0162 / 0.0223 / 0.0401 | 0 / 0 / 0 |
| GGAAACCGUCGAUGC | 0.256 | 0.164 / 0.0803 / 0.209 | 0 / 0 / 0 | 0 / 0 / 0 |
| GGAAACCGUGCGAGC | 0.272 | 0.0491 / 0.0803 / 0.0762 | 0.0162 / 0 / 0.0200 | 0 / 0 / 0 |